Test results reported in US20220033460A1, “IDENTIFICATION AND USE OF T CELL EPITOPES IN DESIGNING DIAGNOSTIC AND THERAPEUTIC APPROACHES FOR COVID-19” (priority 2020, published 2022).
Where a chain is given by its changes, count along the chain named.

B1: TCR_90: TCR to … / A*02:01 (protein)
TCR alpha: RKEVEQDPGPFNVPEGATVAFNCTYSNSASQSFFWYRQDCRKEPKLLMSVYSSGNEDGRFTAQLNRASQYISLLIRDSKLSDSATYLCVVNDPAGSYQLTFGKGTKLSVIPNIQNPDPAVYQLRDSKSSDKSVCLFTDFDSQTNVSQSKDSDVYITDKTVLDMRSMDFKSNSAVAWSNKSDFACANAFNNSIIPEDTFFPSPESSCDVKLVEKSFETDTNLNFQNLSVIGFRILLLKVAGFNLLMTLRLWSS
TCR beta: DTAVSQTPKYLVTQMGNDKSIKCEQNLGHDTMYWYKQDSKKFLKIMFSYNNKELIINETVPNRFSPKSPDKAHLNLHINSLELGDSAVYFCASSPPSGGNTGELFFGEGSRLTVLEDLKNVFPPKVAVFEPSEAEISHTQKATLVCLATGFYPDHVELSWWVNGKEVHSGVSTDPQPLKEQPALNDSRYCLSSRLRVSATFWQNPRNHFRCQVQFYGLSENDEWTQDRAKPVTQIVSAEAWGRADCGFTSESYQQGVLSATILYEILLGKATLYAVLVSALVLMAMVKRKDSRG
B2: TCR_91: TCR to … / B*07:02 (protein)
TCR alpha: DQQVKQNSPSLSVQEGRISILNCDYTNSMFDYFLWYKKYPAEGPTFLISISSIKDKNEDGRFTVFLNKSAKHLSLHIVPSQPGDSAVYFCAARYSGNTPLVFGKGTRLSVIANIQNPDPAVYQLRDSKSSDKSVCLFTDFDSQTNVSQSKDSDVYITDKTVLDMRSMDFKSNSAVAWSNKSDFACANAFNNSIIPEDTFFPSPESSCDVKLVEKSFETDTNLNFQNLSVIGFRILLLKVAGFNLLMTLRLWSS
TCR beta: DAGVIQSPRHEVTEMGQEVTLRCKPISGHDYLFWYRQTMMRGLELLIYFNNNVPIDDSGMPEDRFSAKMPNASFSTLKIQPSEPRDSAVYFCASSTGSNTGELFFGEGSRLTVLEDLKNVFPPKVAVFEPSEAEISHTQKATLVCLATGFYPDHVELSWWVNGKEVHSGVSTDPQPLKEQPALNDSRYCLSSRLRVSATFWQNPRNHFRCQVQFYGLSENDEWTQDRAKPVTQIVSAEAWGRADCGFTSESYQQGVLSATILYEILLGKATLYAVLVSALVLMAMVKRKDSRG
B3: TCR_92: TCR to … / B*07:02 (protein)
TCR alpha: ILNVEQSPQSLHVQEGDSTNFTCSFPSSNFYALHWYRWETAKSPEALFVMTLNGDEKKKGRISATLNTKEGYSYLYIKGSQPEDSATYLCALDYGQNFVFGPGTRLSVLPYIQNPDPAVYQLRDSKSSDKSVCLFTDFDSQTNVSQSKDSDVYITDKTVLDMRSMDFKSNSAVAWSNKSDFACANAFNNSIIPEDTFFPSPESSCDVKLVEKSFETDTNLNFQNLSVIGFRILLLKVAGFNLLMTLRLWSS
TCR beta: MSNQVLCCVVLCFLGANTVDGGITQSPKYLFRKEGQNVTLSCEQNLNHDAMYWYRQDPGQGLRLIYYSQIVNDFQKGDIAEGYSVSREKKESFPLTVTSAQKNPTAFYLCASSIGSREAFFGQGTRLTVVEDLNKVFPPEVAVFEPSEAEISHTQKATLVCLATGFFPDHVELSWWVNGKEVHSGVSTDPQPLKEQPALNDSRYCLSSRLRVSATFWQNPRNHFRCQVQFYGLSENDEWTQDRAKPVTQIVSAEAWGRADCGFTSVSYQQGVLSATILYEILLGKATLYAVLVSALVLMAMVKRKDF
B4: TCR_94: TCR to … / A*02:01 (protein)
TCR alpha: AQKVTQAQTEISVVEKEDVTLDCVYETRDTTYYLFWYKQPPSGELVFLIRRNSFDEQNEISGRYSWNFQKSTSSFNFTITASQVVDSAVYFCALSLIIYNQGGKLIFGQGTELSVKPNIQNPDPAVYQLRDSKSSDKSVCLFTDFDSQTNVSQSKDSDVYITDKTVLDMRSMDFKSNSAVAWSNKSDFACANAFNNSIIPEDTFFPSPESSCDVKLVEKSFETDTNLNFQNLSVIGFRILLLKVAGFNLLMTLRLWSS
TCR beta: NAGVTQTPKFRVLKTGQSMTLLCAQDMNHEYMYWYRQDPGMGLRLIHYSVGEGTTAKGEVPDGYNVSRLKKQNFLLGLESAAPSQTSVYFCASSPTSGSRETQYFGPGTRLLVLEDLKNVFPPKVAVFEPSEAEISHTQKATLVCLATGFYPDHVELSWWVNGKEVHSGVSTDPQPLKEQPALNDSRYCLSSRLRVSATFWQNPRNHFRCQVQFYGLSENDEWTQDRAKPVTQIVSAEAWGRADCGFTSESYQQGVLSATILYEILLGKATLYAVLVSALVLMAMVKRKDSRG
B5: TCR_95: TCR to … / A*02:01 (protein)
TCR alpha: RKEVEQDPGPFNVPEGATVAFNCTYSNSASQSFFWYRQDCRKEPKLLMSVYSSGNEDGRFTAQLNRASQYISLLIRDSKLSDSATYLCVVNNAGNMLTFGGGTRLMVKPHIQNPDPAVYQLRDSKSSDKSVCLFTDFDSQTNVSQSKDSDVYITDKTVLDMRSMDFKSNSAVAWSNKSDFACANAFNNSIIPEDTFFPSPESSCDVKLVEKSFETDTNLNFQNLSVIGFRILLLKVAGFNLLMTLRLWSS
TCR beta: MGPGLLHWMALCLLGTGHGDAMVIQNPRYQVTQFGKPVTLSCSQTLNHNVMYWYQQKSSQAPKLLFHYYDKDFNNEADTPDNFQSRRPNTSFCFLDIRSPGLGDAAMYLCATQNLNTGELFFGEGSRLTVLEDLKNVFPPKVAVFEPSEAEISHTQKATLVCLATGFYPDHVELSWWVNGKEVHSGVSTDPQPLKEQPALNDSRYCLSSRLRVSATFWQNPRNHFRCQVQFYGLSENDEWTQDRAKPVTQIVSAEAWGRADCGFTSESYQQGVLSATILYEILLGKATLYAVLVSALVLMAMVKRKDSRG
B6: TCR_96: TCR to … / A*02:01 (protein)
TCR alpha: RKEVEQDPGPFNVPEGATVAFNCTYSNSASQSFFWYRQDCRKEPKLLMSVYSSGNEDGRFTAQLNRASQYISLLIRDSKLSDSATYLCVVNEEDKLIFGTGTRLQVFPNIQNPDPAVYQLRDSKSSDKSVCLFTDFDSQTNVSQSKDSDVYITDKTVLDMRSMDFKSNSAVAWSNKSDFACANAFNNSIIPEDTFFPSPESSCDVKLVEKSFETDTNLNFQNLSVIGFRILLLKVAGFNLLMTLRLWSS
TCR beta: DTGVSQNPRHKITKRGQNVTFRCDPISEHNRLYWYRQTLGQGPEFLTYFQNEAQLEKSRLLSDRFSAERPKGSFSTLEIQRTEQGDSAMYLCAGSTSLTGELFFGEGSRLTVLEDLKNVFPPKVAVFEPSEAEISHTQKATLVCLATGFYPDHVELSWWVNGKEVHSGVSTDPQPLKEQPALNDSRYCLSSRLRVSATFWQNPRNHFRCQVQFYGLSENDEWTQDRAKPVTQIVSAEAWGRADCGFTSESYQQGVLSATILYEILLGKATLYAVLVSALVLMAMVKRKDSRG
B7: TCR_97: TCR to … / B*07:02 (protein)
TCR alpha: AQRVTQPEKLLSVFKGAPVELKCNYSYSGSPELFWYVQYSRQRLQLLLRHISRESIKGFTADLNKGETSFHLKKPFAQEEDSAMYYCALSYSDGQKLLFARGTMLKVDLNIQNPDPAVYQLRDSKSSDKSVCLFTDFDSQTNVSQSKDSDVYITDKTVLDMRSMDFKSNSAVAWSNKSDFACANAFNNSIIPEDTFFPSPESSCDVKLVEKSFETDTNLNFQNLSVIGFRILLLKVAGFNLLMTLRLWSS
TCR beta: KAGVTQTPRYLIKTRGQQVTLSCSPISGHRSVSWYQQTPGQGLQFLFEYFSETQRNKGNFPGRFSGRQFSNSRSEMNVSTLELGDSALYLCASSLAGGWGTEAFFGQGTRLTVVEDLNKVFPPEVAVFEPSEAEISHTQKATLVCLATGFFPDHVELSWWVNGKEVHSGVSTDPQPLKEQPALNDSRYCLSSRLRVSATFWQNPRNHFRCQVQFYGLSENDEWTQDRAKPVTQIVSAEAWGRADCGFTSVSYQQGVLSATILYEILLGKATLYAVLVSALVLMAMVKRKDF
B8: TCR_98: TCR to … / A*02:01 (protein)
TCR alpha: QKEVEQDPGPLSVPEGAIVSLNCTYSNSAFQYFMWYRQYSRKGPELLMYTYSSGNKEDGRFTAQVDKSSKYISLFIRDSQPSDSATYLCAMSANAGNMLTFGGGTRLMVKPHIQNPDPAVYQLRDSKSSDKSVCLFTDFDSQTNVSQSKDSDVYITDKTVLDMRSMDFKSNSAVAWSNKSDFACANAFNNSIIPEDTFFPSPESSCDVKLVEKSFETDTNLNFQNLSVIGFRILLLKVAGFNLLMTLRLWSS
TCR beta: EAQVTQNPRYLITVTGKKLTVTCSQNMNHEYMSWYRQDPGLGLRQIYYSMNVEVTDKGDVPEGYKVSRKEKRNFPLILESPSPNQTSLYFCASRPLTGGPLAKNIQYFGAGTRLSVLEDLKNVFPPKVAVFEPSEAEISHTQKATLVCLATGFYPDHVELSWWVNGKEVHSGVSTDPQPLKEQPALNDSRYCLSSRLRVSATFWQNPRNHFRCQVQFYGLSENDEWTQDRAKPVTQIVSAEAWGRADCGFTSESYQQGVLSATILYEILLGKATLYAVLVSALVLMAMVKRKDSRG
B9: TCR_102: TCR to … / A*02:01 (protein)
TCR alpha: B6 TCR alpha with E92N, E93N, D94N, K95D, L96M, I97R, T100A, Q105T, F107K
TCR beta: B5 TCR beta with Q113T, N114D, N116D, T117S
B10: TCR_103: TCR to … / A*02:01 (protein)
TCR alpha: B6 TCR alpha with E92G, E93N, D94N, K95D, L96M, I97R, T100A, Q105T, F107K
TCR beta: DAGVIQSPRHEVTEMGQEVTLRCKPISGHNSLFWYRQTMMRGLELLIYFNNNVPIDDSGMPEDRFSAKMPNASFSTLKIQPSEPRDSAVYFCARQDSNTGELFFGEGSRLTVLEDLKNVFPPKVAVFEPSEAEISHTQKATLVCLATGFYPDHVELSWWVNGKEVHSGVSTDPQPLKEQPALNDSRYCLSSRLRVSATFWQNPRNHFRCQVQFYGLSENDEWTQDRAKPVTQIVSAEAWGRADCGFTSESYQQGVLSATILYEILLGKATLYAVLVSALVLMAMVKRKDSRG

tested on: CD8+ T cells; format: cell-based, human; conditions: cells of the TCR clonotype specific for the epitope / HLA class I of the same line

**Q.** How did the “No. of Cells” value turn out when B1 was run?
**A.** The value was 2.

**Q.** For B2, which “No. of Cells” value is on record?
**A.** Its value is 2.

**Q.** Which “No. of Cells” value does the source give for B3 here?
**A.** Its value is 2.

**Q.** For B4, which “No. of Cells” value is on record?
**A.** The value was 2.

**Q.** With B5 as the molecule, how does the “No. of Cells” value read?
**A.** The value was 2.

**Q.** B6 was tested. Which “No. of Cells” value did it give?
**A.** Its value is 2.

**Q.** With B7 as the molecule, how does the “No. of Cells” value read?
**A.** Its value is 2.

**Q.** B8 was tested. Which “No. of Cells” value did it give?
**A.** The value was 2.

**Q.** Which “No. of Cells” value does the source give for B9 here?
**A.** Its value is 2.

**Q.** B10 was tested. Which “No. of Cells” value did it give?
**A.** Its value is 2.
